These results are taken from paper PMC6134199.

This series deals with T1, SlyA (Escherichia coli K-12 W3110 type A) (UniProt P0A8W2).
T1 sequence (looked up, limits assumed): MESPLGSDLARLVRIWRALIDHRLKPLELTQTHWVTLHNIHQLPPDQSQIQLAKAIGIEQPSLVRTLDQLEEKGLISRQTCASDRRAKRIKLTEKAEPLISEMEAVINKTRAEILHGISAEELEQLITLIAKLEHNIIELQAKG
Description: EMSA. As to conditions: 0.5 pmol each FITC probe + 20 pmol TF (Fig 4: 0-8 pmol) in 10 ul DNA-binding buffer (composition not given, ref 38), 37 C, 20 min, PAGE with mixed probes, recombinant protein, protein details: His, label: FITC. In general terms: Mobility shift assays separate free from complexed probe on a gel.

Construct, isoform or probe ends are uncertain for at least one entry. Where a protein sequence is shown, tags need not be part of it.

For the sequence “ATTATAAAGATTTGTAAATATAACCGTCTCCGGTATGTTGCCTGAGGCGGTTTTTTTGTCTCTAACGTGCGGAAAAATTTGTTCCTCTTCACATTTTTTGTACAACCGACATGCCCGTGTAGCTCACAAATATGACAGTGGCGTGAATTTTGCGCATTGACGGCAGTTATGATTCGCGGTATTGCTTAACTGTGATTGCACATTTAGTAATCACTGTTTTCTTTTCCACCAGAAACCAGTATGAGGGAAACGAGGC (double strand) [rmf promoter probe (256 bp)]”, the binding result runs as follows: (10 mM ppGpp, increased binding) “binds”; (no effector) “binds”.
“CGTACCGACCCCATATCGTGACGCCGCTGCTGTTGTACTAACCAAACAGGTTCCCCCTGCCATTCGCCGATTTGTAGTGCGCGCTGACCCACAAGATCGAAATTTGCCGCTTCGCCATATGGCAATTCTCCCTTCGGCAACCATAATTTTTGTTCATGGCTGACGACCCACCAGCCGTGATCTAATTTTTCAATTATACGATCCATAGCTCTTGCACTACCTTTGCATCACTGGCATGTTTAACATGGTTTTTACATTTCTCACTGAGCAGTTTTTGAATACAAACTTGCGGAGTCAATC (double strand) [rsd promoter probe (300 bp)]”: the binding result (10 mM ppGpp, increased binding) was “binds” and the binding result (no effector) was “binds”.
